Measured values as given in ChEMBL document CHEMBL4049445.
The source made the active and inactive calls. The calls are words filed in the database; no cut-off is given here.

These compounds were tested on Influenza A virus (A/WSN/1933(H1N1)) (assay: Antiviral activity against Influenza A virus A/WSN/33 (H1N1) expressing M2 proton channel N31S/V27A double mutant infected in MDCK cells assessed as reduction in plaque formation measured at 46 hrs by crystal violet staining based assay).
For `C1CC(C23CC4CC(CC(C4)C2)C3)CCN1`, the Activity was “Active”.
`N=C(N)N1CCC(C23CC4CC(CC(C4)C2)C3)CC1` was tested, and the Activity was “inactive”.
In the case of `C1CC(C2C3CC4CC(C3)CC2C4)CCN1` (stereo not given), the Activity is reported as “inactive”.
With `C1CCC(C23CC4CC(CC(C4)C2)C3)NC1` (stereo not given) the Activity was “inactive”.
In the case of `N=C(N)N1CCC(C=C2C3CC4CC(C3)CC2C4)CC1`, the Activity is reported as “inactive”.
